Test [1] relates to P388. In words: In vivo antitumor activity against mouse P388 cells at 5 mg/kg relative to control.
Test [2] relates to P388. The test is described as follows: In vivo antitumor activity against mouse P388 cells at 0.62 mg/kg relative to control.
Test [3] deals with P388. The test is described as follows: In vivo antitumor activity against mouse P388 cells at 0.8 mg/kg relative to control.
Test [4] deals with P388. In words: In vivo antitumor activity against mouse P388 cells at 1 mg/kg relative to control.

The source of these data is ChEMBL document CHEMBL1150726, “New macrocyclic trichothecenes from Baccharis megapotamica” (1987).

By T/C is commonly meant the result in the treated group divided by that in the control group, in per cent.

For `CC1=C[C@H]2O[C@@H]3C[C@H]4OC(=O)/C=C\C=C\[C@H]([C@H](C)O)OCC[C@@H](C)[C@H](O)C(=O)OC[C@@]2(C[C@H]1O)[C@]4(C)[C@@]31CO1`, the T/C in the test with P388 [1] was found to be 250%.

For `CC1=C[C@H]2O[C@@H]3C[C@H]4OC(=O)/C=C\C=C\[C@H]([C@@H](C)O)OCC[C@@H](C)[C@H](O)C(=O)OC[C@@]2(C[C@H]1O)[C@]4(C)[C@@]31CO1`, in the test on P388 [2], the T/C was 196%.

As for `CC1=C[C@H]2O[C@@H]3C[C@H]4OC(=O)/C=C\C=C\[C@H]([C@@H](C)O)OC[C@H](O)[C@@H](C)CC(=O)OC[C@@]2(C[C@H]1O)[C@]4(C)[C@@]31CO1`, in the test on P388 [3], the T/C amounted to 175%.

In turn, `CC1=C[C@H]2O[C@@H]3C[C@H]4OC(=O)/C=C\C=C\[C@H]([C@H](C)O)OC[C@H](O)[C@@H](C)CC(=O)OC[C@@]2(C[C@H]1O)[C@]4(C)[C@@]31CO1` displayed a T/C with P388 [4] of 203%.
